This is an account of results in PMC4703368, “A Conserved Interaction between a C-Terminal Motif in Norovirus VPg and the HEAT-1 Domain of eIF4G Is Essential for Translation Initiation” (PLoS Pathogens, 2016).

Assay [1] has as its target T1, untagged eIF4GII HEAT-1 (745–1003) (human, UniProt O43432-1 745-1003).
T1 construct: also called unlabelled eIF4GII (745–1003); eIF4GII (753–1003); source: E. coli (BL21-CodonPlus(DE3) RIPL or BL21-Rosetta(DE3)), purified
In words: fluorescence polarisation. The conditions noted are these: both partners purified.

In the next assay the target is T2, DAP5 HEAT-1 (61–323) (human, UniProt P78344-2 61-323).
T2 construct: also called HEAT-1 domain of DAP5; DAP5 HEAT-1 domain; source: E. coli (BL21-CodonPlus(DE3) RIPL or BL21-Rosetta(DE3)), purified
T2 sequence (looked up): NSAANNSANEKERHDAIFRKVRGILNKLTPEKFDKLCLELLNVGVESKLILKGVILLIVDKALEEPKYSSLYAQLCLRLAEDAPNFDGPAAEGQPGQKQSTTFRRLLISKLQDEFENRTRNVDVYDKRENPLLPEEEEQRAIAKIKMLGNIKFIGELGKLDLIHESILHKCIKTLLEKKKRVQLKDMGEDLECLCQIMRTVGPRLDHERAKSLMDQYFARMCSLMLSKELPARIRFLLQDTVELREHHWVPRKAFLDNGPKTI
The assay can be described thus: fluorescence polarisation. Particulars: both partners purified. A general note: Fluorescence polarisation rises when a labelled molecule tumbles more slowly, as on binding a larger partner.

The target in assay [2] is T3, MBP tagged eIF4GII HEAT-1 (745–1003) (human, UniProt O43432-1 745-1003).
T3 chain: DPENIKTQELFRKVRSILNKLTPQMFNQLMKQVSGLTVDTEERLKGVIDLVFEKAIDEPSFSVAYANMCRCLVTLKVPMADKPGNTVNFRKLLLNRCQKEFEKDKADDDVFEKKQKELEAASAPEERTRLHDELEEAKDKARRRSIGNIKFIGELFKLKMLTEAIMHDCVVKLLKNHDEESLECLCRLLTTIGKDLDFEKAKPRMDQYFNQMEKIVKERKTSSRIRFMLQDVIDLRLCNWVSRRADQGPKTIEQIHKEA
In words: FP.

Ends that are not written are not given here. * marks the point of attachment. FITC = O=C1OC2(c3ccc(O)cc3Oc3cc(O)ccc32)c2ccc(NC(=S)*)cc21; Ahx = NCCCCCC(=O)O

B1: FITC-labelled peptide MNV VPg 104–124 (peptide)
peptide: {FITC-Ahx}-VGPSWADDDRQVDYGEKINFE-OH
SMILES: CC[C@H](C)[C@H](NC(=O)[C@H](CCCCN)NC(=O)[C@H](CCC(=O)O)NC(=O)CNC(=O)[C@H](Cc1ccc(O)cc1)NC(=O)[C@H](CC(=O)O)NC(=O)[C@@H](NC(=O)[C@H](CCC(N)=O)NC(=O)[C@H](CCCNC(=N)N)NC(=O)[C@H](CC(=O)O)NC(=O)[C@H](CC(=O)O)NC(=O)[C@H](CC(=O)O)NC(=O)[C@H](C)NC(=O)[C@H](Cc1c[nH]c2ccccc12)NC(=O)[C@H](CO)NC(=O)[C@@H]1CCCN1C(=O)CNC(=O)[C@@H](NC(=O)CCCCCNC(=S)Nc1ccc2c(c1)C(=O)OC21c2ccc(O)cc2Oc2cc(O)ccc21)C(C)C)C(C)C)C(=O)N[C@@H](CC(N)=O)C(=O)N[C@@H](Cc1ccccc1)C(=O)N[C@@H](CCC(=O)O)C(=O)O
notes: source: synthetic peptide, bought: ChinaPeptides Co., Ltd
In general, Kd refers to the concentration at which binding is half-saturated. A low value points to a tighter complex. For B1, the Kd in assay [1] is 2.8 µM; with DAP5 HEAT-1 (61–323) it was 20 µM; in assay [2] it was 2.9 µM.

B2: FITC-labelled peptide MNV VPg 108–124 (peptide)
peptide: {FITC-Ahx}-WADDDRQVDYGEKINFE
notes: as for B1
As to B2, the Kd in assay [1] was 10.6 µM; in assay [2] it was 8.4 µM.
